Experimental data: patent US4876265A, “Process and compositions for controlling mites parasitizing on honey bees” (priority 1983, dated 1989)

Tested on: honey bees
Experiment: Package bee colonies, brood production and food consumption
Format: in vivo, honey bee
Settings: control bees remove all of 2000 ml
Protocol: Forty-two packages of honey bees (2 lbs.~907 g) are obtained from 22 colonies infested with Acarapis woodi. Infestations range from 60 to 100%. Each package is provided with a mated queen and 550 ml of treated or untreated 50% (wt/wt) sucrose syrup. All treated colonies receive syrup containing either 0.5 mg/ml (group B) or 1.0 mg/ml (group C) of 2-(2,4-dimethylphenylimino)-3-methyl-4-thiazoline hydrochloride. The control (group A) consists of 10 packages of bees and the treatment groups B and C of 16 packages each.
After installation on frames free of nectar and pollen, package colonies are examined at weekly intervals to determine food consumption, brood production and bee mortality. Random samples of ten bees/colony are examined on days 5, 12, 19, 26, 33 and 40. On day 0 and 5 bees are examined. Dissections and live mite determinations are made according to Eischen et al. (Am. Bee J. 127: 99-101, 1987).

Cc1ccc(N=c2sccn2C)c(C)c1.Cl [2-(2,4-dimethylphenylimino)-3-methyl-4-thiazoline hydrochloride]
syrup utilized/hoarded, average per colony (group B, 0.5 mg/ml): 654 mL | syrup utilized/hoarded, average per colony (group C, 1.0 mg/ml): 526 mL
